pIC50: −log10 of the molar value.
Molecular target: Recombinant SARS-CoV-2 3CL Protease (Severe acute respiratory syndrome coronavirus 2 (2019-nCoV) (SARS-CoV-2), UniProt P0DTD1)
Assay: Inhibitory activity test against SARS-CoV-2 3CL proteases
Format: biochemical
Details: 50% SARS-CoV-2 3CL protease inhibitory concentration

## Cc1cncc(-n2c(=O)c(-c3ccc(F)c(Cl)c3)c(N3CCC(C(F)F)CC3)n(CC#N)c2=O)n1 [Compound I-194]
  pIC50: > 8.00
